Earlier results, collected in paper PMC8943039.

Protein sequences, listed by entry. Tags and fused reporters are not part of them. Residues count along the entry.
UniProt Q496J9, 473-567: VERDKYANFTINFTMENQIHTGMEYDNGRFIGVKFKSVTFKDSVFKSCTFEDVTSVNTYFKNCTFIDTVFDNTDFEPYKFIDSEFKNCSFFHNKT

Molecular target: SV2C luminal domain (Homo sapiens) (UniProt Q496J9)

BoNT/A1 receptor-binding domain RBD (from UniProt P0DPI1)
Kd: 260 nM
